Earlier results as cited in PMC8952214 (Pharmaceuticals, 2022).

Tested on: A/RomaISS/02/08 H1N1 (Brisbane-like) oseltamivir-sensitive virus
Details: cited from earlier work

## Cc1ccc(S(=O)(=O)NC(C)c2ccc(-n3ccnc3)cc2)cc1C (centres unmarked) [Compound 1]
  SI (selectivity index) = CC50/EC50, A/Roma H1N1: 6 × 10^2 a

## Cc1ccc(F)cc1NC(=O)COC(=O)c1ccc2ccccc2n1 [Compound 4]
  SI (selectivity index) = CC50/EC50, A/Roma H1N1: 4 × 10^3 a
